Experimental data reported in publication PMC7232359, “Mutation of Hydrophobic Residues in the C-Terminal Domain of the Marburg Virus Matrix Protein VP40 Disrupts Trafficking to the Plasma Membrane” (2020).

Tested on: Marburg virus VP40 L201A mutant, 6x-His tagged, Marburg virus, P35260 1-303

How did the stoichiometry N turn out when “Marburg virus VP40 L201A mutant, 6x-His tagged” was run?
The stoichiometry N was 2.
